Measured values from several laboratories, pooled; numbers as filed in NIAID ChemDB.

Common to all: tests on isolated targets; organism: HIV-1; target: Reverse transcriptase; method: RT activity; measure: IC50

ICn: concentration for n% inhibition. Blank or dashed fields: not listed here. Lines come from different laboratories, so protocols vary.

smiles,strain or isolate,mutations,result
O=C1C[C@@H](c2ccc(O)cc2)Oc2cc(O)c(-c3c(O)cc4c(c3O)C(=O)C[C@@H](c3ccc(O)cc3)O4)c(O)c21,-,-,>368 µM
O=C(CC1Nc2ccccc2S(=O)(=O)n2cccc21)Oc1ccc(Cl)cc1,IIIB,-,119 µM
Cc1ccc(S(=O)(=O)c2c(-c3ccc(Cl)cc3)[nH]c3ccccc23)cc1,-,K103N,36 µM
O=C(O[C@@H]1O[C@@H]2COC(=O)c3cc(O)c(O)c(O)c3-c3c(cc(O)c(O)c3O)C(=O)O[C@H]2[C@@H]2OC(=O)c3cc(O)c(O)c(O)c3-c3c(cc(O)c(O)c3O)C(=O)O[C@@H]12)c1cc(O)c(O)c(O)c1,IIIB,-,20 µM
Cc1cc(C)c(S(=O)(=O)OCC2OC3OC4C(CO)OC(OC5C(CO)OC(OC6C(CO)OC(OC7C(CO)OC(OC8C(CO)OC(OC9C(C[n+]%10ccccc%10)OC(OC2C(O)C3O)C(O)C9O)C(O)C8O)C(O)C7O)C(O)C6O)C(O)C5O)C(O)C4O)c(C)c1,LAV,-,>1000 µg/mL
Cc1ccc(S(=O)(=O)c2c(C)[nH]c3ccccc23)cc1,-,K103N,>100 µM
N#C/C=C/c1cc(Br)cc(Oc2ccc(Cl)cc2OCCn2ccc(=O)[nH]c2=O)c1,-,-,0.03 µM
COc1ccc(C(=O)/C=C/c2cc3ccc(Cl)c(C)c3nc2Cl)c(Br)c1,-,-,0.15 µg/mL
C[C@H]1C2(O)CCC3C1(CCC1[C@@]3(C)CC[C@@]3(C)C4C[C@](C)(C(=O)O)CC[C@]4(C)CC[C@]13C)CO2,IIIB,-,100 µg/mL
C=C(C)C1CC[C@]2(C(=O)O)CC[C@]3(C)C(CCC4[C@@]5(C)C[C@@H](O)[C@H](C(=O)[O-])C(C)(C)C5CC[C@]43C)C12,-,-,16.3 µg/mL
O=S(=O)(O)c1cc(S(=O)(=O)O)c2cc(NS(=O)(=O)c3cccc4c(S(=O)(=O)Nc5ccc6cc(S(=O)(=O)O)cc(S(=O)(=O)O)c6c5)cccc34)ccc2c1,-,-,<50 µM
CCOC(=O)c1c(C(C)C)c(C#N)c(=N)n2ccccc12,LAV,-,70 µM
CCOC(=O)c1[nH]c2ccccc2c1S(=O)(=O)c1cc(Cl)ccc1N,IIIB,-,3.5 µM
Cc1c(Cl)ccc2cc(/C=C/C(=O)c3cccc(Br)c3)c(Cl)nc12,-,-,0.21 µg/mL
CCOP(=O)(OCC)C(O)c1c(-c2cccs2)[nH]c2ccccc12,-,-,0.00748 µM
Cc1c(Sc2ccccc2)n(COCCOP(=O)(O)OP(=O)(O)OP(=O)(O)O)c(=O)[nH]c1=O,-,-,>500 µM
S=Cc1c(-c2cccs2)[nH]c2ccccc12,-,-,0.00354 µM
C/C1=C\C=C\C2(C)C=C(CO)C(C)CC23OC([O-])C(C3=O)C(O)/C=C/C2(C)C=C(C=O)C(C)CC23OC([O-])C(C3=O)C(O)/C(C)=C/C=C/C2C=C(CO)C(C)CC23OC([O-])C(C3=O)C(O)/C=C/C2(C)C=C(C=O)C(C)CC23OC([O-])C(C3=O)C1O,IIIB,-,1.6 µg/mL
Cc1cc(/C=C/c2cc3ccc(Cl)c(C)c3nc2Cl)c(C)s1,-,-,0.25 µg/mL
Cc1cc(C)cc(S(=O)(=O)c2c(C(=O)NC(C)C(N)=O)[nH]c3ccc(Cl)cc23)c1,-,NNRTI-resistant (RT Y181I),2.211 µM
CCN(Cc1ccc2occc2c1)c1nc(Nc2c(F)cccc2-c2ccccc2)[nH]c(=O)n1,-,-,100 µM
CC(C)[C@H](NC(=O)c1ccccc1)C(=O)N/N=C/c1c(F)cccc1Cl,-,-,79.5 µM
COP(=O)(c1cc(C)cc(CCC#N)c1)c1c(C(N)=O)[nH]c2ccc(Cl)cc12,-,Y181C/K103N,1.614 µM
CC(C)CCC[C@@H](C)[C@H]1CC[C@H]2[C@@H]3CC[C@H]4C[C@@H](CCC=C(c5cc(Cl)c(O)c(C(=O)O)c5)c5cc(Cl)c(O)c(C(=O)O)c5)CC[C@]4(C)[C@H]3CC[C@]12C,-,-,7.8 µM
CCN1c2ncc(CCc3ccncc3)cc2C(=O)N(C)c2ccc(Cl)nc21,IIIB,RT-K103N,0.12 µM
O=C(Nc1ccc(S(=O)(=O)O)c2cccc(S(=O)(=O)O)c12)c1ccc(C(=O)Nc2ccc(S(=O)(=O)O)c3cccc(S(=O)(=O)O)c23)cc1,-,-,>50 µM
CCc1cc(=O)c2c(O)c3c(O)cc(O)c4c5c(O)cc(O)c6c(O)c7c(=O)cc(CC)c8c1c2c(c34)c(c65)c78,-,-,89.34 µg/mL
Nc1nc2c(ccn2[C@H]2C[C@H](F)[C@@H](COP(=O)(O)OP(=O)(O)OP(=O)(O)O)O2)c(=O)[nH]1,-,-,0.27 µM
O=C(CCCCCCCCC(=O)Nc1ccc(S(=O)(=O)O)c2cccc(S(=O)(=O)O)c12)Nc1ccc(S(=O)(=O)O)c2cccc(S(=O)(=O)O)c12,-,-,~50 µM
Cc1cn([C@H]2CC[C@@H](COP(=O)(O)OP(=O)(O)OP(=O)(O)O)O2)c(=O)[nH]c1=O,-,-,0.04 µg/mL
CCc1c(Sc2ccccc2)n(COCc2ccccc2)c(=O)[nH]c1=O,-,-,0.16 µM
O=C1c2ccc(O)c(O)c2C(=O)c2c(O)ccc(O)c21,-,-,4.7 µg/mL
Fc1cccc(-c2ccccc2)c1Nc1nc(Cl)nc(NCc2ccc3occc3c2)n1,-,-,100 µM
CC(C)=CCN1Cc2cc(Cl)cc3[nH]c(=O)n(c23)C[C@@H]1C,-,-,0.2 µM
N#C/C=C/c1c(-c2cccs2)[nH]c2ccccc12,-,-,0.00804 µM
CCc1cc(NCc2cc(C)c(C)cc2OC)c(=O)[nH]c1C,-,-,0.01 µM
CCCCCCCCCCCCCCCC(=O)NCC1OC(n2cnc3c(N)ncnc32)C(OP(=O)(O)OCC2OC(n3cnc4c(N)ncnc43)C(OP(=O)(O)OCCOCn3cnc4c(N)ncnc43)C2O)C1O,IIIB,-,<100 µM
CCCCCCCCCCCCCCCc1nc2c(cc(S(=O)(=O)O)c3ccccc32)o1,-,-,<50 µM
NCC1OC(n2cnc3c(N)ncnc32)C(OP(=O)(O)OCC2OC(n3cnc4c(N)ncnc43)C(OP(=O)(O)OCC3OC(n4cnc5c(N)ncnc54)C(O)C3O)C2O)C1O,IIIB,-,<100 µM
Cc1cccc(-c2ccccc2)c1Nc1nc(NCc2ccc3c(ccn3S(C)(=O)=O)c2)nc(=O)[nH]1,-,-,100 µM
O=C(CC1Nc2ccccc2S(=O)(=O)n2cccc21)OCc1ccc(Cl)cc1,IIIB,-,32 µM
CCOC(=O)c1[nH]c2ccc(Cl)cc2c1Sc1cc(Cl)ccc1N,IIIB,-,7 µM
Cc1cc(=O)c2c(O)c3c(O)cc(O)c4c5c(O)cc(O)c6c(O)c7c(=O)cc(C)c8c1c2c(c34)c(c65)c78,-,-,<1 µg/mL
O=C1c2ccccc2C(=O)c2c(O)c(O)cc(O)c21,-,-,9.3 µg/mL
C=C1CCC[C@H]2[C@](C)(CC3=C(O)C(=O)C=C(OC)C3=O)[C@@H](C)CC[C@]12C,-,-,>50 µg/mL
CC(C)(O/N=C(\C(=O)NCC(O)O)c1csc(N)n1)C(=O)O,-,-,<50 µg/mL
COc1cc(-c2ccc(N=Nc3ccc4c(S(=O)(=O)O)cc(S(=O)(=O)O)c(N)c4c3O)c(OC)c2)ccc1N=Nc1ccc2c(S(=O)(=O)O)cc(S(=O)(=O)O)c(N)c2c1O,RF,-,6.1 µM
O=S(=O)(c1ccccc1)c1c[nH]c2ccccc12,-,K103N,81 µM
COc1ccc(C(=O)/C=C/c2cc3ccc(Cl)c(C)c3nc2Cl)cc1OC,-,-,0.15 µg/mL

A second listing of 7 rows from above:

COc1ccc(C(=O)/C=C/c2cc3ccc(Cl)c(C)c3nc2Cl)c(Br)c1 ; result: 0.15 µg/mL
O=C(Nc1ccc(S(=O)(=O)O)c2cccc(S(=O)(=O)O)c12)c1ccc(C(=O)Nc2ccc(S(=O)(=O)O)c3cccc(S(=O)(=O)O)c23)cc1 ; result: >50 µM
C=C1CCC[C@H]2[C@](C)(CC3=C(O)C(=O)C=C(OC)C3=O)[C@@H](C)CC[C@]12C ; result: >50 µg/mL
C/C1=C\C=C\C2(C)C=C(CO)C(C)CC23OC([O-])C(C3=O)C(O)/C=C/C2(C)C=C(C=O)C(C)CC23OC([O-])C(C3=O)C(O)/C(C)=C/C=C/C2C=C(CO)C(C)CC23OC([O-])C(C3=O)C(O)/C=C/C2(C)C=C(C=O)C(C)CC23OC([O-])C(C3=O)C1O ; strain or isolate: IIIB ; result: 1.6 µg/mL
Cc1cc(C)cc(S(=O)(=O)c2c(C(=O)NC(C)C(N)=O)[nH]c3ccc(Cl)cc23)c1 ; mutations: NNRTI-resistant (RT Y181I) ; result: 2.211 µM
O=C(O[C@@H]1O[C@@H]2COC(=O)c3cc(O)c(O)c(O)c3-c3c(cc(O)c(O)c3O)C(=O)O[C@H]2[C@@H]2OC(=O)c3cc(O)c(O)c(O)c3-c3c(cc(O)c(O)c3O)C(=O)O[C@@H]12)c1cc(O)c(O)c(O)c1 ; strain or isolate: IIIB ; result: 20 µM
Cc1cn([C@H]2CC[C@@H](COP(=O)(O)OP(=O)(O)OP(=O)(O)O)O2)c(=O)[nH]c1=O ; result: 0.04 µg/mL